Biological target: MERS-CoV N-NTD (Betacoronavirus England 1, UniProt K9N4V7)
Assay: X-ray crystallography
Conditions: co-crystals, 2 mM ligand, pH 5.5, 20 °C; predicted allosteric Site 1

| SMILES | X-ray crystallography |
| --- | --- |
| COCCOc1ccc2[nH]ccc2c1 | 6LZ8 (N:P4-4 complex) |
| FCCOc1ccc2[nH]ccc2c1 | 6LZ6 (N:P4-3 complex) |

Source: paper PMC9061996, “Targeting the N-Terminus Domain of the Coronavirus Nucleocapsid Protein Induces Abnormal Oligomerization via Allosteric Modulation” (2022)
